In PubChem BioAssay AID720706 (Broad Institute, 2013) one finds GFP signal change (wild-type ribosome) data, which are given here for one compound.

The list shows a part of the results, in another mix than the full data. Active and inactive are the calls of the source.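 The calls were made as follows: active = significant combined selectivity score with lowered wild-type GFP, culture density cut under 30%, mutant RFP and density less affected; inactive = any of these conditions unmet.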

A short description of the assay: GFP drop in mixed WT/humanized-ribosome E. coli culture – GFP/RFP fluorescence, OD600, single point, bacterial rRNA inhibitor project, primary screen (AID 720706). As to conditions: E. coli WT GFP vs humanized-ribosome RFP mutants, 24 h, hits give low values, DMSO median 0, no signal -100.
Take `COc1ccc(N)c([N+](=O)[O-])c1[N+](=O)[O-]`: the GFP signal change (wild-type ribosome) is active: -32.4%.
